# Results as given in article PMC11218954 (PLOS ONE, 2024).
# B1: αF1sc 8 EP1-19, yeast-displayed (scFv, V domains shown)
# VH: QVQLQQWGAGLLKPSETLSLTCAVYGGSFSGYYWSWIRQPPGKGLEWIGEINHSGNTNYNPSLKSRVTISVDTSKNQFSLQLNSVTPEDTAVYYCARTRGYFDLWGRGTLVTVSS
# VL: QPVLTQSPSVSVSPGQTASITCSGDKLGGRYASWYQQKPGQSPVLVIYQDTKRPSGIPERFSGSNSGNTATLTISGTQAMDEADYYCQSWDSSAAVFGTGTKLTVL
# B2: αF1sc 2 EP1-42, yeast-displayed (scFv, V domains shown)
# VH: QVQLVESGGGLVKPGGSLRLSCAASGFTFSDYYMSWIRQAPGKGLEWVSYISSSGSIIYYADSVKGRFTISRDNAKNSLYLQMNSLRAEDTAVYYCAKEIRKHDAFDIWGQGTMVTVSS
# VL: not shown
# B3: αF1sc 2 EP2-3, yeast-displayed (scFv, V domains shown)
# VH: B2 VH with S53G
# VL: not shown
# B4: αF1sc 8 (anti-F1 single chain antibody 8, parental), yeast-displayed (scFv, V domains shown)
# VH: B1 VH
# VL: B1 VL with G29D
# B5: αF1sc AM8 (αF1sc 8 EP2-24), affinity matured, yeast-displayed (scFv, V domains shown)
# VH: B1 VH with H53R
# VL: B1 VL
# B6: αF1sc 2 (anti-F1 single chain antibody 2, parental), yeast-displayed (scFv, V domains shown)
# VH: B2 VH with K102R
# VL: not shown
# B7: αF1sc AM2 (αF1sc 2 EP3-18), affinity matured, yeast-displayed (scFv, V domains shown)
# VH: B2 VH with S53G
# VL: DIRMTQSPSSLSASVGDRVTITCRASRSISGYLNWYQQKPGKAPKLLIYATSSLQSGVPSRFSGSGSGTDFTLTISSLQPEDFATYYCQQSYSTPSSFGQGTKVDIK
# Biological target: T1, recombinant F1V fusion protein (F1 and V antigen), dimer-enriched, biotinylated (Yersinia pestis, strain , UniProt P26948, biotin (NHS-LC-LC biotinylation kit))
# Test: flow cytometry on cells
row,Binder,binding result
1,B1,binds
2,B2,binds
3,B3,binds

# Biological target: T1, recombinant F1V fusion protein (F1 and …)
# Test: flow cytometry on cells
# Remark: another data set of the same source
row,Binder,Kd
1,B4,0.0677 µM
2,B5,0.0078 µM
3,B6,0.154 µM
4,B7,0.0513 µM

# Positions count from the first letter of the chain named.
